A mixed list of measured activities; the numbers were collected in NIAID ChemDB.

All rows: growth or infection tests; species: Encephalomyocarditis virus

ECn: concentration that inhibits the pathogen or its effect by n%.

compound	method	cell line	read-out	result
O=c1[nH][se]c2ncccc12	-	-	MIC	6 µg/mL
Nc1ccccc1[Se][Se]c1ccccc1N	-	-	MIC	10 µg/mL
O=c1c2cccnc2[se]n1C1CCCCC1	-	-	MIC	4 µg/mL
CCCNC(=S)Nc1ccccc1[Se][Se]c1ccccc1NC(=S)NCCC	-	-	MIC	>1000 µg/mL
N#Cc1c(N2CCOCC2)nsc1-c1ccccc1	plaque count	L929	EC50	>1 µg/mL
O=c1c2ccccc2[se]n1-c1cc([N+](=O)[O-])ccn1	-	-	MIC	500 µg/mL
Cc1c(C(N)=O)ncn1C1OC(CO)C(O)C1O	cytopathic effect	-	EC50	>200 µg/mL
CSc1nsc(-c2ccccc2)c1C(=O)O	plaque count	L929	EC50	>500 µg/mL
Cc1ccc(S(=O)(=O)Nc2ccccc2[Se][Se]c2ccccc2NS(=O)(=O)c2ccc(C)cc2)cc1	-	-	MIC	60 µg/mL
NC(=O)c1c[se]c([C@@H]2O[C@H](CO)[C@@H](O)[C@H]2O)n1	cytopathic effect	HeLa	EC50	5 µg/mL
CCCn1[se]c2ncccc2c1=O	-	-	MIC	4 µg/mL
CCCSc1nsc(-c2ccccc2)c1C(=O)OC	plaque count	L929	EC50	>50 µg/mL
O=c1c2ccccc2[se]n1-c1ccccc1	-	-	MIC	10 µg/mL
N#Cc1c(N2CCCC2)nsc1-c1ccccc1	plaque count	L929	EC50	>7 µg/mL
O=c1c2ccccc2[se]n1CC(O)C(O)C(O)C(O)CO	-	-	MIC	165.7 µM
NS(=O)(=O)c1ccc(NC(=O)CCC[Se][Se]CCCC(=O)Nc2ccc(S(N)(=O)=O)cc2)cc1	-	-	MIC	>1000 µg/mL

The first 2 rows once more:

| compound | method | cell line | read-out | result |
|---|---|---|---|---|
| O=c1[nH][se]c2ncccc12 | - | - | MIC | 6 µg/mL |
| Nc1ccccc1[Se][Se]c1ccccc1N | - | - | MIC | 10 µg/mL |

Rows are shuffled and stem from different studies. Blank or dashed fields: not listed here.